Pooled drug test results. Numbers come from NIAID ChemDB, via PubChem.

Common to all: growth or infection tests; organism: Mycobacterium avium intracellulare

An empty or dashed field is not shown.

compound | measure | strain | value
CCCCCCCCO/N=C1\[C@H](C)CC(C)(O)[C@H](O[C@@H]2O[C@H](C)C[C@H](N(C)C)[C@H]2O)[C@@H](C)[C@H](O[C@H]2C[C@@](C)(OC)[C@@H](OC(C)=O)[C@H](C)O2)[C@@H](C)C(=O)O[C@H](CC)[C@@](C)(O)[C@H](O)[C@H]1C | MIC | 20066 (clarithromycin-susceptible) | 1.56 µg/mL
Cc1ccc2oc(/C=N/N=C(\N)c3cnccn3)nc2c1 | MIC |  | >16 µg/mL
CO[C@H]1/C=C/O[C@@]2(C)Oc3c(C)c(=O)c4c(O)c(c5oc6cc(N7CCCC(C)C7)ccc6nc5c4c3C2=O)NC(=O)/C(C)=C\C=C\[C@H](C)[C@H](O)[C@@H](C)[C@@H](O)[C@@H](C)[C@H](OC(C)=O)[C@@H]1C | MIC | Shibazaki | 1.25 µg/mL
N/C(=N\N=C\c1nc2ccc([N+](=O)[O-])cc2o1)c1cnccn1 | MIC |  | >16 µg/mL
CC[C@H]1OC(=O)[C@H](C)[C@@H](O[C@H]2C[C@@](C)(OC)[C@@H](OC(C)=O)[C@H](C)O2)[C@H](C)[C@@H](OC2O[C@H](C)C[C@H](N(C)C)[C@H]2OC(=O)NC)C(C)(O)C[C@@H](C)/C(=N\OCCCC2CCCCC2)[C@H](C)[C@@H](O)[C@]1(C)O | MIC | 20075 | 3.13 µg/mL
CCC(C)S/C(N)=N/N=C/c1ccncc1 | MIC | CNCTC D38/92 | 250 µM
CC[C@H]1OC(=O)[C@H](C)[C@@H](O[C@H]2C[C@@](C)(OC)[C@@H](OC(C)=O)[C@H](C)O2)[C@H](C)[C@@H](OC2O[C@H](C)C[C@H](N(C)C)[C@H]2OC(N)=O)C(C)(O)C[C@@H](C)/C(=N\OCCCC2CCCCC2)[C@H](C)[C@@H](O)[C@]1(C)O | MIC | 20067 | 1.56 µg/mL
COc1cc2ccnc3c2c(c1OC(=O)c1ccc(F)c(F)c1)N(C)C=C3 | MIC |  | 20 µg/mL
O=C1C(=S)N(c2ccccc2)c2ccccc21 | MIC | CNCTC D38/92 | 32 µM
OCCN1CCN(CC/C=C2\c3ccccc3Sc3ccc(Cl)cc32)CC1 | MIC | ATCC 23432 | 12.5 µg/mL
CCC(C)C(=O)Oc1ccc(OC)cc1C1OC1C | EC50 | ATCC 19709 | 1.5 µg/mL
CCCCCc1ccc(C(=O)Oc2c(OC)cc3ccnc4c3c2N(C)C=C4)cc1 | MIC |  | 2.5 µg/mL
CCCC(C)S/C(N)=N/N=C/c1ccc2ccccc2n1 | MIC | CNCTC D38/92 | 63 µM
OCCN1CCN(CCC=C2c3ccccc3Sc3ccc(Cl)cc32)CC1 | MIC | R 7313 | 25 µg/mL
CN(C)C/C=C(/c1ccc(Br)cc1)c1ccc(-c2ccc(Br)cc2)cc1 | MIC |  | 68 µg/mL
C=C(CCC=C(C)C)[C@@H]1CC[C@@]2(C)O[C@H]2C1 | MBC | ATCC 19709 | >20 µg/mL
CN(C)C/C=C(/c1ccccc1)c1ccc(-c2ccc(Br)cc2)cc1 | MIC |  | 40 µg/mL
CC(C)Sc1ncnc2ccccc12 | MIC | D 39/93 | 63 µM
COc1c(O)c2c(=O)cc(OC)c3c4c(OC)cc(=O)c5c(O)c(OC)c6c(c(c1CC(C)(O)C6C(C)=O)c23)c54 | EC50 |  | 2.5 µg/mL
CC(C)CSc1ncnc2ccccc12 | MIC | D 38/92 | 125 µM
COc1cc2ccnc3c2c(c1OC(=O)c1ccc(F)cc1)N(C)C=C3 | EC50 |  | 3.5 µg/mL
CO[C@H]1/C=C/O[C@@]2(C)Oc3c(C)c(O)c4c(O)c(c5c(c4c3C2=O)NC2(CCN(CC(C)C)CC2)N=5)=NC(=O)/C(C)=C\C=C\[C@H](C)[C@H](O)[C@@H](C)[C@@H](O)[C@@H](C)[C@H](OC(C)=O)[C@@H]1C | MIC | LYN | 0.5 µg/mL
CN1C(=S)C(=O)c2ccccc21 | MIC | CNCTC D39/93 | 32 µM
CN(C)C/C=C(/c1ccc(-c2ccc(Br)cc2)cc1)c1ccc([N+](=O)[O-])cc1 | MIC |  | 73 µg/mL
CCCCC(=O)O[C@H]1[C@H](C)[C@@H](O[C@@H]2O[C@H](C)C[C@H](N(C)C)[C@H]2O)C(C)(O)C[C@@H](C)/C(=N\OCCCOc2ccccc2)[C@H](C)[C@@H](O)[C@](C)(O)[C@@H](CC)OC(=O)[C@@H]1C | MIC | 20066 (clarithromycin-susceptible) | 3.13 µg/mL
CO[C@H]1/C=C/O[C@@]2(C)Oc3c(C)c(=O)c4c(O)c(c5oc6cc(N7CCCC7)ccc6nc5c4c3C2=O)NC(=O)/C(C)=C\C=C\[C@H](C)[C@H](O)[C@@H](C)[C@@H](O)[C@@H](C)[C@H](OC(C)=O)[C@@H]1C | MIC50 |  | ≤0.3 µg/mL
CC[C@H]1OC(=O)[C@H](C)[C@@H](OC2C[C@@](C)(OC)[C@@H](OC(=O)C(C)C)[C@H](C)O2)[C@H](C)[C@@H](O[C@@H]2O[C@H](C)C[C@H](N(C)C)[C@H]2O)C(C)(O)C[C@@H](C)/C(=N\OCCCOc2ccccc2)[C@H](C)[C@@H](O)[C@]1(C)O | MIC | 20066 (clarithromycin-susceptible) | 1.56 µg/mL
N/C(=N\N=C\c1ccncc1)c1ccccn1 | MIC |  | >16 µg/mL
CC[C@H]1OC(=O)[C@H](C)[C@@H](O[C@H]2C[C@@](C)(OC)[C@@H](OC(C)=O)[C@H](C)O2)[C@H](C)[C@@H](O[C@@H]2O[C@H](C)C[C@H](N(C)C)[C@H]2OC(=O)NNCc2ccccc2OC)C(C)(O)C[C@@H](C)/C(=N\OCCCC2CCCCC2)[C@H](C)[C@@H](O)[C@]1(C)O | MIC | 20066 (clarithromycin-susceptible) | 0.39 µg/mL
C#CCNC(=O)O[C@H]1C(O[C@@H]2[C@@H](C)[C@H](O[C@H]3C[C@@](C)(OC)[C@@H](OC(C)=O)[C@H](C)O3)[C@@H](C)C(=O)O[C@H](CC)[C@@](C)(O)[C@H](O)[C@@H](C)/C(=N/OCCCC3CCCCC3)[C@H](C)CC2(C)O)O[C@H](C)C[C@@H]1N(C)C | MIC | 20066 | 0.2 µg/mL
CC(C)N=c1cc2n(-c3ccc(Cl)cc3)c3ccccc3nc-2cc1Nc1ccc(Cl)cc1 | MIC | P2 | 5 µg/mL
COc1cc(/C=N/N(C(=O)c2ccncc2)C(=O)c2cnccn2)ccc1O | MIC | ATCC 13950 | >16 µg/mL
CCc1ccc(C(=O)Oc2c(OC)cc3ccnc4c3c2N(C)C=C4)cc1 | MIC |  | 2.5 µg/mL
CCCCCCCCNC(=O)O[C@H]1C(O[C@@H]2[C@@H](C)[C@H](O[C@H]3C[C@@](C)(OC)[C@@H](OC(C)=O)[C@H](C)O3)[C@@H](C)C(=O)O[C@H](CC)[C@@](C)(O)[C@H](O)[C@@H](C)/C(=N/OCCCC3CCCCC3)[C@H](C)CC2(C)O)O[C@H](C)C[C@@H]1N(C)C | MIC | 20073 | 0.39 µg/mL
CCS/C(N)=N/N=C/c1nc2ccccc2n1C | MIC | CNCTC D38/92 | 125 µM
CCCCCN1C(=S)C(=O)c2ccccc21 | MIC | CNCTC D38/92 | 32 µM
CCCCCCSc1ncnc2ccccc12 | MIC | D 39/93 | 125 µM
CS/C(N)=N/N=C/c1ccc2ccccc2n1 | MIC | CNCT D39/93 | >1000 µM
CCCCCCCCCCC(=O)O[C@H]1[C@H](C)OC(O[C@H]2[C@H](C)[C@@H](O[C@@H]3O[C@H](C)C[C@H](N(C)C)[C@H]3O)C(C)(O)C[C@@H](C)/C(=N\OCCCOc3ccccc3)[C@H](C)[C@@H](O)[C@](C)(O)[C@@H](CC)OC(=O)[C@@H]2C)C[C@@]1(C)OC | MIC | 20066 (clarithromycin-susceptible) | 1.56 µg/mL
CN(C)C/C=C(\c1ccc(I)cc1)c1ccc(-c2ccc(Br)cc2)cc1 | MIC |  | 19 µg/mL
CCCCCCCCCCNNC(=O)O[C@H]1[C@H](O[C@@H]2[C@@H](C)[C@H](O[C@H]3C[C@@](C)(OC)[C@@H](OC(C)=O)[C@H](C)O3)[C@@H](C)C(=O)O[C@H](CC)[C@@](C)(O)[C@H](O)[C@@H](C)/C(=N/OCCCC3CCCCC3)[C@H](C)CC2(C)O)O[C@H](C)C[C@@H]1N(C)C | MIC | 20066 (clarithromycin-susceptible) | >50 µg/mL
O=C(c1ccncc1)N(NCc1cccc([N+](=O)[O-])c1)C(=O)c1cnccn1 | MIC | ATCC 13950 | 8 µg/mL
CC(=O)NC[C@H]1CN(c2ccc(N3CCN(c4ccc([N+](=O)[O-])s4)CC3)c(F)c2)C(=O)O1 | MIC | B-78/3 | 0.25 µg/mL
N/C(=N\N=C\c1cc2ccccc2s1)c1cnccn1 | MIC |  | >16 µg/mL
COc1cc2ccnc3c2c(c1OC(=O)c1cccc(F)c1F)N(C)C=C3 | EC50 |  | >15 µg/mL
CCCCS/C(N)=N/N=C/c1ccc2ccccc2n1 | MIC | CNCTC D38/92 | 16 µM
CN(C)CCCN1c2ccccc2Sc2ccc(Cl)cc21 | MIC | T 7360 | 25 µg/mL
CC1COc2c(N3CCN(C)CC3)c(F)cc3c(=O)c(C(=O)O)cn1c23 | MIC90 | 31 strains | 50 µg/mL
CN(C)C/C=C(\c1ccc(O)cc1)c1ccc(-c2ccccc2)cc1 | MIC |  | 98 µg/mL
CO[C@H]1/C=C/O[C@@]2(C)Oc3c(C)c(O)c4c(=O)c(c5oc6cc(N7CCN(CC(C)C)CC7)cc(=O)c6nc5c4c3=C2O)NC(=O)/C(C)=C\C=C\[C@H](C)[C@H](O)[C@@H](C)[C@@H](O)[C@@H](C)[C@H](OC(C)=O)[C@@H]1C | MIC | N-260 | 0.06 µg/mL
CCCSc1ncnc2ccccc12 | MIC | D 39/93 | 125 µM
O=C(c1ccncc1)N(/N=C/c1cccc(Cl)c1)C(=O)c1cnccn1 | MIC | ATCC 13950 | >16 µg/mL
CCSc1ncnc2ccccc12 | MIC | D 38/92 | >1000 µM
COc1cccc(C(=O)Oc2c(OC)cc3ccnc4c3c2N(C)C=C4)c1 | MIC |  | 20 µg/mL
O=C(c1ccncc1)N(/N=C/c1ccco1)C(=O)c1cnccn1 | MIC | ATCC 13950 | >16 µg/mL
N/C(=N\N=C\c1cc2ccccc2o1)c1ccccn1 | MIC |  | >16 µg/mL
COc1ccc(/C=N/N(C(=O)c2ccncc2)C(=O)c2cnccn2)c(O)c1 | MIC | ATCC 13950 | >16 µg/mL
CCS/C(N)=N/N=C/c1ccc2ccccc2n1.CCS/C(N)=N/N=C/c1ccc2ccccc2n1 | MIC | CNCT D39/93 | 32 µM
CN(C)C/C=C(\c1ccc(Cl)cc1)c1ccc(-c2ccc(Br)cc2)cc1 | MIC |  | 18.7 µg/mL
CC[C@H]1OC(=O)[C@H](C)[C@@H](O[C@H]2C[C@@](C)(OC)[C@@H](OC(C)=O)[C@H](C)O2)[C@H](C)[C@@H](O[C@@H]2O[C@H](C)C[C@H](N(C)C)[C@H]2OC(=O)NNCc2cccc(OC)c2)C(C)(O)C[C@@H](C)/C(=N\OCCCC2CCCCC2)[C@H](C)[C@@H](O)[C@]1(C)O | MIC | 20066 (clarithromycin-susceptible) | 0.39 µg/mL
CO[C@H]1/C=C/O[C@@]2(C)Oc3c(C)c(=O)c4c(O)c(c5oc6cc(N7CCCCC7)ccc6nc5c4c3C2=O)NC(=O)/C(C)=C\C=C\[C@H](C)[C@H](O)[C@@H](C)[C@@H](O)[C@@H](C)[C@H](OC(C)=O)[C@@H]1C | MIC90 |  | 2.5 µg/mL
CC[C@H]1OC(=O)[C@H](C)[C@@H](O[C@H]2C[C@@](C)(OC)[C@@H](OC(C)=O)[C@H](C)O2)[C@H](C)[C@@H](O[C@@H]2O[C@H](C)C[C@H](N(C)C)[C@H]2OC(=O)NNCc2ccc(OC)cc2)C(C)(O)C[C@@H](C)/C(=N\OCCCC2CCCCC2)[C@H](C)[C@@H](O)[C@]1(C)O | MIC | 20066 (clarithromycin-susceptible) | 0.39 µg/mL
NC(=S)N=Nc1c(S)n(-c2ccccc2)c2ccccc12 | MIC | CNCTC D39/93 | 125 µM
C[C@@H]1CN(c2c(F)c(N)c3c(=O)c(C(=O)O)cn(C4CC4)c3c2F)C[C@H](C)N1 | MIC90 | 31 strains | 12.5 µg/mL

For reference, 4 entries again:

CO[C@H]1/C=C/O[C@@]2(C)Oc3c(C)c(=O)c4c(O)c(c5oc6cc(N7CCCCC7)ccc6nc5c4c3C2=O)NC(=O)/C(C)=C\C=C\[C@H](C)[C@H](O)[C@@H](C)[C@@H](O)[C@@H](C)[C@H](OC(C)=O)[C@@H]1C ; measure: MIC90 ; value: 2.5 µg/mL
CN(C)CCCN1c2ccccc2Sc2ccc(Cl)cc21 ; measure: MIC ; strain: T 7360 ; value: 25 µg/mL
CCCCCCCCCCNNC(=O)O[C@H]1[C@H](O[C@@H]2[C@@H](C)[C@H](O[C@H]3C[C@@](C)(OC)[C@@H](OC(C)=O)[C@H](C)O3)[C@@H](C)C(=O)O[C@H](CC)[C@@](C)(O)[C@H](O)[C@@H](C)/C(=N/OCCCC3CCCCC3)[C@H](C)CC2(C)O)O[C@H](C)C[C@@H]1N(C)C ; measure: MIC ; strain: 20066 (clarithromycin-susceptible) ; value: >50 µg/mL
CC(C)CSc1ncnc2ccccc12 ; measure: MIC ; strain: D 38/92 ; value: 125 µM

ECn is the concentration giving n% inhibition of infection, replication or growth. MIC50, MIC90 and the like: level of inhibition, or share of isolates inhibited. Conditions beyond the fields shown may differ between rows.